Reference: ChEMBL document CHEMBL5346973 (J Med Chem, 2023)

Sequences of proteins named here, by UniProt entry; tags and fusion partners are left off. A change or cut given only in a name is not applied to a line headed by its entry.
UniProt P43144: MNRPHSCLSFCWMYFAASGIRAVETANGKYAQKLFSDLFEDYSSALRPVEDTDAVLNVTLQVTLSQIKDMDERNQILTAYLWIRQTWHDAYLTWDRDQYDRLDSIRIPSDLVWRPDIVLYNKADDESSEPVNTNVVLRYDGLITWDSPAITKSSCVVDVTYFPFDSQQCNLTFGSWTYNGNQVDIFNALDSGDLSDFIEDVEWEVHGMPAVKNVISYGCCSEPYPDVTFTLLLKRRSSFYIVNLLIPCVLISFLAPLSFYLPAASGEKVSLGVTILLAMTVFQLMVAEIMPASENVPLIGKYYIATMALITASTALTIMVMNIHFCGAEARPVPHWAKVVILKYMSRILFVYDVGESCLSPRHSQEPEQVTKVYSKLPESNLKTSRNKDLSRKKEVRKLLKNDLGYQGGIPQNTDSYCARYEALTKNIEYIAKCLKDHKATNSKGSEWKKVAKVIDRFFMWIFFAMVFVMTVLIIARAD
UniProt Q9JLB5: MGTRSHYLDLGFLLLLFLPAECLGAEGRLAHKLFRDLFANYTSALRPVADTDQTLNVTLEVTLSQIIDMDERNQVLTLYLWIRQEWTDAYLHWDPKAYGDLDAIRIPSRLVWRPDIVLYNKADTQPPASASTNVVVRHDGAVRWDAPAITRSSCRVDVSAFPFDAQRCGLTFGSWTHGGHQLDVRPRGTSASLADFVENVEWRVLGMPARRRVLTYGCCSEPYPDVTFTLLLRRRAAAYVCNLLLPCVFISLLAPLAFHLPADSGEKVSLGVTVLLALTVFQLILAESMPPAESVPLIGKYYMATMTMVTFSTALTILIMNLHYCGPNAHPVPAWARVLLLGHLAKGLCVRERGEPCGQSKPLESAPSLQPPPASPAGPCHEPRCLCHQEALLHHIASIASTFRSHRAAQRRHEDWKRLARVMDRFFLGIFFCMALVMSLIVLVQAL
UniProt Q05941, whole entry, looked up: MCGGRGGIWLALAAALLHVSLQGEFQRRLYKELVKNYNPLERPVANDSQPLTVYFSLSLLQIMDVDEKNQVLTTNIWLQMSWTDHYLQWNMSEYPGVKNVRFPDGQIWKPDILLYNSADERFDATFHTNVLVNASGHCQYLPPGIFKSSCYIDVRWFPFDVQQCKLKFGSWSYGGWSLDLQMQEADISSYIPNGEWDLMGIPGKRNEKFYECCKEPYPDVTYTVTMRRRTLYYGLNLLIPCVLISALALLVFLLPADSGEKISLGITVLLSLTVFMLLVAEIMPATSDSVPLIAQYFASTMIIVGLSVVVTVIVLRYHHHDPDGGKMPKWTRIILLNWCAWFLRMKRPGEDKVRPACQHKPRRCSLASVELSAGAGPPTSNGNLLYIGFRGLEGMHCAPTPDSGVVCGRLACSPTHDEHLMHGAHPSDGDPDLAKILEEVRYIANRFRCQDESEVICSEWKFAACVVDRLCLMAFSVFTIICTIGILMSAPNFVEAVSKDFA

Columns and labels:
Rattus norvegicus = organism: Rattus norvegicus; experiment: Selectivity ratio of IC50 for rat alpha7 nACh receptor to IC50 for rat alpha9alpha10 nACh receptor
[1] = target: Nicotinic acetylcholine receptor alpha9/alpha10 (Rattus norvegicus) (UniProt P43144+Q9JLB5); experiment: Antagonist activity at rat alpha9alpha10 nACh receptor expressed in Xenopus oocyte assessed as inhibition of acetylcholine-induced response at -70 mV holding potential by measuring ratio of IC50 by voltage-clamp based electrophysiological assay relative to GeXIVA; type: cell-based; details: filed as antagonist
[2] = target: Neuronal acetylcholine receptor subunit alpha-7 (Rattus norvegicus) (UniProt Q05941); experiment: Antagonist activity at rat alpha7 nACh receptor expressed in Xenopus oocyte assessed as inhibition of acetylcholine-induced response at -70 mV holding potential by measuring ratio of IC50 by voltage-clamp based electrophysiological assay relative to GeXIVA; details: filed as antagonist

CC[C@H](C)[C@@H]1NC(=O)[C@H](CCCNC(=N)N)NC(=O)[C@H](CCCNC(=N)N)NC(=O)[C@@H](NC(=O)[C@H](Cc2ccc(O)cc2)NC(=O)[C@H](CCCNC(=N)N)NC(=O)[C@H](CCCNC(=N)N)NC(=O)[C@H](CCCNC(=N)N)NC(=O)[C@H](CCCNC(=N)N)NC(=O)[C@H](CC(=O)O)NC(=O)[C@H](Cc2ccc(O)cc2)NC(=O)[C@@H]2CCCN2C(=O)[C@H](CO)NC(=O)[C@H](CCCNC(=N)N)NC(=O)[C@@H]2CSSC[C@H](NC(=O)[C@@H](N)[C@@H](C)O)C(=O)N[C@@H](CCCNC(=N)N)C(=O)N[C@@H](CO)C(=O)N[C@@H](CO)C(=O)NCC(=O)N[C@@H](CCCNC(=N)N)C(=O)N[C@@H](Cc3ccc(O)cc3)C(=O)N2)CSSC[C@@H](C(=O)N[C@@H](C)C(=O)O)NC(=O)[C@H](C)NC(=O)[C@H](CC(=O)O)NC(=O)[C@H]([C@@H](C)O)NC1=O
Ratio IC50 (Rattus norvegicus): 50.1 | Ratio IC50 [1]: 1.2 | Ratio IC50 [2]: 1.2

CC[C@H](C)[C@@H]1NC(=O)[C@H](CCCNC(=N)N)NC(=O)[C@H](CCCNC(=N)N)NC(=O)[C@@H](NC(=O)[C@H](Cc2ccc(O)cc2)NC(=O)[C@H](CCCNC(=N)N)NC(=O)[C@H](CCCNC(=N)N)NC(=O)[C@H](CCCNC(=N)N)NC(=O)[C@H](CCCNC(=N)N)NC(=O)[C@H](CC(=O)O)NC(=O)[C@H](Cc2ccc(O)cc2)NC(=O)[C@@H]2CCCN2C(=O)[C@H](CO)NC(=O)[C@H](CCCNC(=N)N)NC(=O)[C@@H]2CSSC[C@H](NC(=O)[C@@H](N)[C@@H](C)O)C(=O)N[C@@H](CCCNC(=N)N)C(=O)N[C@@H](CO)C(=O)N[C@@H](CO)C(=O)NCC(=O)N[C@@H](CCCNC(=N)N)C(=O)N[C@@H](Cc3ccc(O)cc3)C(=O)N2)CSSC[C@@H](C(=O)N[C@H](C(=O)O)C(C)C)NC(=O)[C@H](C)NC(=O)[C@H](CC(=O)O)NC(=O)[C@H](C)NC1=O
Ratio IC50 (Rattus norvegicus): 98.1 | Ratio IC50 [1]: 1.7 | Ratio IC50 [2]: 3.2

CC[C@H](C)[C@@H]1NC(=O)[C@H](CCCNC(=N)N)NC(=O)[C@H](CCCNC(=N)N)NC(=O)[C@@H]2CSSC[C@H](NC(=O)[C@H](Cc3ccc(O)cc3)NC(=O)[C@H](CCCNC(=N)N)NC(=O)CNC(=O)[C@H](CO)NC(=O)[C@H](CO)NC(=O)[C@H](CCCNC(=N)N)NC(=O)[C@@H](NC(=O)[C@H](C)N)CSSC[C@@H](C(=O)N[C@H](C(=O)O)C(C)C)NC(=O)[C@H](C)NC(=O)[C@H](C)NC(=O)[C@H]([C@@H](C)O)NC1=O)C(=O)N[C@@H](CCCNC(=N)N)C(=O)N[C@@H](CO)C(=O)N1CCC[C@H]1C(=O)N[C@@H](Cc1ccc(O)cc1)C(=O)N[C@@H](CC(=O)O)C(=O)N[C@@H](CCCNC(=N)N)C(=O)N[C@@H](CCCNC(=N)N)C(=O)N[C@@H](CCCNC(=N)N)C(=O)N[C@@H](CCCNC(=N)N)C(=O)N[C@@H](Cc1ccc(O)cc1)C(=O)N2
Ratio IC50 (Rattus norvegicus): 218 | Ratio IC50 [1]: 1.7 | Ratio IC50 [2]: 2.1

CC[C@H](C)[C@@H]1NC(=O)[C@H](CCCNC(=N)N)NC(=O)[C@H](CCCNC(=N)N)NC(=O)[C@@H]2CSSC[C@H](NC(=O)[C@H](Cc3ccc(O)cc3)NC(=O)[C@H](CCCNC(=N)N)NC(=O)CNC(=O)[C@H](CO)NC(=O)[C@H](CO)NC(=O)[C@H](CCCNC(=N)N)NC(=O)[C@@H](NC(=O)[C@@H](N)[C@@H](C)O)CSSC[C@@H](C(=O)N[C@H](C(=O)O)C(C)C)NC(=O)[C@H](C)NC(=O)[C@H](CC(=O)O)NC(=O)[C@H]([C@@H](C)O)NC1=O)C(=O)N[C@@H](CCCNC(=N)N)C(=O)N[C@@H](CO)C(=O)N1CCC[C@H]1C(=O)N[C@@H](Cc1ccc(O)cc1)C(=O)N[C@@H](CC(=O)O)C(=O)N[C@@H](C)C(=O)N[C@@H](CCCNC(=N)N)C(=O)N[C@@H](CCCNC(=N)N)C(=O)N[C@@H](CCCNC(=N)N)C(=O)N[C@@H](Cc1ccc(O)cc1)C(=O)N2
Ratio IC50 (Rattus norvegicus): 189 | Ratio IC50 [1]: 2.1 | Ratio IC50 [2]: 2.3

CC[C@H](C)[C@@H]1NC(=O)[C@H](CCCNC(=N)N)NC(=O)[C@H](CCCNC(=N)N)NC(=O)[C@@H]2CSSC[C@H](NC(=O)[C@H](Cc3ccc(O)cc3)NC(=O)[C@H](CCCNC(=N)N)NC(=O)CNC(=O)[C@H](CO)NC(=O)[C@H](CO)NC(=O)[C@H](CCCNC(=N)N)NC(=O)[C@@H](NC(=O)[C@@H](N)[C@@H](C)O)CSSC[C@@H](C(=O)N[C@H](C(=O)O)C(C)C)NC(=O)[C@H](C)NC(=O)[C@H](CC(=O)O)NC(=O)[C@H]([C@@H](C)O)NC1=O)C(=O)N[C@@H](CCCNC(=N)N)C(=O)N[C@@H](C)C(=O)N1CCC[C@H]1C(=O)N[C@@H](Cc1ccc(O)cc1)C(=O)N[C@@H](CC(=O)O)C(=O)N[C@@H](CCCNC(=N)N)C(=O)N[C@@H](CCCNC(=N)N)C(=O)N[C@@H](CCCNC(=N)N)C(=O)N[C@@H](CCCNC(=N)N)C(=O)N[C@@H](Cc1ccc(O)cc1)C(=O)N2
Ratio IC50 (Rattus norvegicus): 560 | Ratio IC50 [1]: 0.6 | Ratio IC50 [2]: 2

CC[C@H](C)[C@@H]1NC(=O)[C@H](CCCNC(=N)N)NC(=O)[C@H](CCCNC(=N)N)NC(=O)[C@@H]2CSSC[C@H](NC(=O)[C@H](Cc3ccc(O)cc3)NC(=O)[C@H](CCCNC(=N)N)NC(=O)CNC(=O)[C@H](CO)NC(=O)[C@H](CO)NC(=O)[C@H](CCCNC(=N)N)NC(=O)[C@@H](NC(=O)[C@@H](N)[C@@H](C)O)CSSC[C@@H](C(=O)N[C@H](C(=O)O)C(C)C)NC(=O)[C@H](C)NC(=O)[C@H](CC(=O)O)NC(=O)[C@H](C)NC1=O)C(=O)N[C@@H](CCCNC(=N)N)C(=O)N[C@@H](CO)C(=O)N1CCC[C@H]1C(=O)N[C@@H](Cc1ccc(O)cc1)C(=O)N[C@@H](CC(=O)O)C(=O)N[C@@H](CCCNC(=N)N)C(=O)N[C@@H](CCCNC(=N)N)C(=O)N[C@@H](CCCNC(=N)N)C(=O)N[C@@H](CCCNC(=N)N)C(=O)N[C@@H](Cc1ccc(O)cc1)C(=O)N2
Ratio IC50 (Rattus norvegicus): 198 | Ratio IC50 [1]: 2.2 | Ratio IC50 [2]: 2.5

CC[C@H](C)[C@@H]1NC(=O)[C@H](CCCNC(=N)N)NC(=O)[C@H](CCCNC(=N)N)NC(=O)[C@@H](NC(=O)[C@H](Cc2ccc(O)cc2)NC(=O)[C@H](C)NC(=O)[C@H](CCCNC(=N)N)NC(=O)[C@H](CCCNC(=N)N)NC(=O)[C@H](CCCNC(=N)N)NC(=O)[C@H](CC(=O)O)NC(=O)[C@H](Cc2ccc(O)cc2)NC(=O)[C@@H]2CCCN2C(=O)[C@H](CO)NC(=O)[C@H](CCCNC(=N)N)NC(=O)[C@@H]2CSSC[C@H](NC(=O)[C@@H](N)[C@@H](C)O)C(=O)N[C@@H](CCCNC(=N)N)C(=O)N[C@@H](CO)C(=O)N[C@@H](CO)C(=O)NCC(=O)N[C@@H](CCCNC(=N)N)C(=O)N[C@@H](Cc3ccc(O)cc3)C(=O)N2)CSSC[C@@H](C(=O)N[C@H](C(=O)O)C(C)C)NC(=O)[C@H](C)NC(=O)[C@H](CC(=O)O)NC(=O)[C@H]([C@@H](C)O)NC1=O
Ratio IC50 (Rattus norvegicus): 124 | Ratio IC50 [1]: 4.5 | Ratio IC50 [2]: 10.3

CC[C@H](C)[C@@H]1NC(=O)[C@H](CCCNC(=N)N)NC(=O)[C@H](CCCNC(=N)N)NC(=O)[C@@H](NC(=O)[C@H](Cc2ccc(O)cc2)NC(=O)[C@H](CCCNC(=N)N)NC(=O)[C@H](CCCNC(=N)N)NC(=O)[C@H](CCCNC(=N)N)NC(=O)[C@H](CCCNC(=N)N)NC(=O)[C@H](CC(=O)O)NC(=O)[C@H](Cc2ccc(O)cc2)NC(=O)[C@H](C)NC(=O)[C@H](CO)NC(=O)[C@H](CCCNC(=N)N)NC(=O)[C@@H]2CSSC[C@H](NC(=O)[C@@H](N)[C@@H](C)O)C(=O)N[C@H](CCCNC(=N)N)C(=O)N[C@@H](CO)C(=O)N[C@@H](CO)C(=O)NCC(=O)N[C@@H](CCCNC(=N)N)C(=O)N[C@@H](Cc3ccc(O)cc3)C(=O)N2)CSSC[C@@H](C(=O)N[C@H](C(=O)O)C(C)C)NC(=O)[C@H](C)NC(=O)[C@H](CC(=O)O)NC(=O)[C@H]([C@@H](C)O)NC1=O
Ratio IC50 (Rattus norvegicus): 56.9 | Ratio IC50 [1]: 1.3 | Ratio IC50 [2]: 1.4
